Results: patent US20080139463A1 (priority 2005, published 2008)

Experiment: general procedure: solution-phase peptide synthesis; TFFH/DIPEA (fragment coupling); PyAOP/sym-collidine (cyclisation)
[1] = late stage modification step, HPLC

| Substance | step yield (late stage modification step) | final HPLC purity [1] | crude HPLC purity [1] | step yield (coupling step) |
| --- | --- | --- | --- | --- |
| Boc-D-MeAla-EtVal-Val-MeLeu-Ala-D-Ala-MeLeu-MeLeu-MeVal-MeBmt(OAc)-Abu-NMe-CH2—CH2—OH | 81% | – | – | – |
| MeBmt(OAc)-CsA | 92% | – | – | – |
| H-Val-MeLeu-Ala-D-Ala-MeLeu-MeLeu-MeVal-MeBmt(OAc)-Abu-Sar-OMe | 61% | 99% | – | – |
| Ph-NH—C(S)— MeLeu-Val-MeLeu-Ala-D-Ala-MeLeu-MeLeu-MeVal-MeBmt(OAc)-Abu-Sar-OMe | 90% | – | – | – |
| H-D-MeAla-EtVal-Val-MeLeu-Ala-D-Ala-MeLeu-MeLeu-MeVal-MeBmt-Abu-OH | 64% | – | 86% | – |
| Boc-D-MeAla-EtVal-Val-MeLeu-Ala-D-Ala-MeLeu-MeLeu-MeVal-MeBmt(OAc)-Abu-Sar-OMe | – | – | – | 90% |
| H-MeLeu-Val-MeLeu-Ala-D-Ala-MeLeu-MeLeu-MeVal-MeBmt(OAc)-Abu-Sar-OMe | 76% | 98% | – | – |
